Data as given in PubChem BioAssay AID624099 (ICCB-Longwood, 2012).
Shown is a random part of about 21,000 reagents. 497 of them (2.4%) were called active. 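Higher z means weaker E2 silencing; only reporter increases were scored, and knock-downs that hurt cell survival may mask genuine repressor factors.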

Purpose: 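Human genes that papillomavirus E2 requires to repress the HPV18 LCR promoter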 (primary screen)
Cells: human C33A cervical carcinoma cells (HPV-negative) stably expressing BPV1 E2 and an HPV18 LCR luciferase reporter
Knock-down reagent: siRNA pool against human genes, 40 nM
Time to read-out: 72 h
Detection: 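HPV18 LCR reporter light per well, converted to plate-wise z-scores that exclude control wells, and averaged over triplicate plates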
Scale: mean z-score and z-score: higher = stronger reporter signal, weaker E2 silencing
Call rule: 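Hit if mean z-score reaches 2 and two or more of three replicate z-scores also reach 2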

RPAP1 [SID134321268] → mean z-score: -1.83; z-score, replicate A: -1.53; z-score, replicate B: -1.99; z-score, replicate C: -1.96; call: inactive
IL25 [SID134312876] → mean z-score: -0.91; z-score, replicate A: -0.28; z-score, replicate B: -1.11; z-score, replicate C: -1.35; call: inactive
SLC50A1 [SID134324250] → mean z-score: -0.98; z-score, replicate A: -0.92; z-score, replicate B: -1.04; z-score, replicate C: -0.98; call: inactive
DKFZp451B082 [SID134327669] → mean z-score: -0.73; z-score, replicate A: -0.79; z-score, replicate B: -0.52; z-score, replicate C: -0.87; call: inactive
KIAA1671 [SID134326102] → mean z-score: -0.39; z-score, replicate A: -0.56; z-score, replicate B: -0.48; z-score, replicate C: -0.12; call: inactive
BAIAP2 [SID134316495] → mean z-score: 1.21; z-score, replicate A: 1.19; z-score, replicate B: 1.32; z-score, replicate C: 1.11; call: inactive
MTUS1 [SID134312009] → mean z-score: -1.07; z-score, replicate A: -1.18; z-score, replicate B: -1.09; z-score, replicate C: -0.95; call: inactive
DUS4L [SID134322907] → mean z-score: 0.53; z-score, replicate A: 0.34; z-score, replicate B: 0.88; z-score, replicate C: 0.38; call: inactive
BCO1 [SID134317629] → mean z-score: 1.06; z-score, replicate A: 0.88; z-score, replicate B: 1.1; z-score, replicate C: 1.22; call: inactive
OR5H6 [SID134329923] → mean z-score: -0.71; z-score, replicate A: -0.75; z-score, replicate B: -0.67; z-score, replicate C: -0.71; call: inactive
CCNG2 [SID56478578] → mean z-score: -0.45; z-score, replicate A: -0.43; z-score, replicate B: -0.52; z-score, replicate C: -0.41; call: inactive
EFHD2 [SID134320333] → mean z-score: 1.58; z-score, replicate A: 1.74; z-score, replicate B: 1.69; z-score, replicate C: 1.31; call: inactive
AAMP [SID134315550] → mean z-score: 1.71; z-score, replicate A: 1.43; z-score, replicate B: 1.71; z-score, replicate C: 1.99; call: inactive
SLAMF8 [SID134317452] → mean z-score: -0.11; z-score, replicate A: -0.02; z-score, replicate B: -0.31; z-score, replicate C: 0; call: inactive
SLC7A8 [SID134312664] → mean z-score: -0.17; z-score, replicate A: -0.15; z-score, replicate B: -0.21; z-score, replicate C: -0.17; call: inactive
ASB12 [SID134317414] → mean z-score: -0.72; z-score, replicate A: -0.97; z-score, replicate B: -0.43; z-score, replicate C: -0.76; call: inactive
CPB1 [SID134311248] → mean z-score: -1.5; z-score, replicate A: -1.63; z-score, replicate B: -1.5; z-score, replicate C: -1.38; call: inactive
PRPH2 [SID134315461] → mean z-score: 1.06; z-score, replicate A: 0.71; z-score, replicate B: 1.03; z-score, replicate C: 1.45; call: inactive
PSMD11 [SID134315711] → mean z-score: -0.49; z-score, replicate A: -0.88; z-score, replicate B: -0.17; z-score, replicate C: -0.42; call: inactive
CLN8 [SID134317534] → mean z-score: -0.21; z-score, replicate A: -0.06; z-score, replicate B: -0.31; z-score, replicate C: -0.26; call: inactive
TRIM75 [SID134327441] → mean z-score: 0.34; z-score, replicate A: 0.23; z-score, replicate B: 0.75; z-score, replicate C: 0.04; call: inactive

Laid out differently: 2 of the entries above
Target gene,PubChem SID,mean z-score,"z-score, replicate A","z-score, replicate B","z-score, replicate C",call
CPB1,SID134311248,-1.5,-1.63,-1.5,-1.38,inactive
PRPH2,SID134315461,1.06,0.71,1.03,1.45,inactive
